The source of these data is patent publication US20140228279A1, “CATIONIC PEPTIDOPOLYSACCHARIDES WITH EXCELLENT BROAD- SPECTRUM ANTIMICROBIAL ACTIVITIES AND HIGH SELECTIVITY” (priority 2011, published 2014).

The first series deals with human red blood cells. As to the kind of experiment: Hemolysis assay. The series is classed as cell-based. The following applies: E. coli over human red blood cells. The procedure:
Fresh human blood (5 ml) was collected from a healthy donor. Erythrocytes were separated by centrifugation at 1000 rpm for 10 min, washed three times with Tris buffer (10 mM Tris, 150 mM NaCl, pH 7.2) and diluted to final concentration (5%, v/v). 50 μl of antimicrobial solution at different concentrations mixed with 50 μl erythrocytes stock were added to a 96-well microplate and incubated for 1 h at 37° C. with 150 rpm shaking. The microplate were centrifuged at 1,000 rpm for 10 min. 80 μl aliquots of the supernatant were then transferred to a new 96-well microplate and diluted with another 80 μl of Tris buffer. Hemolysis was measured as the absorbance at 540 nm with a microplate reader (BIO-RAD, US). Complete hemolysis was determined in Tris buffer plus 0.1% Triton x-100 as positive control, while Tris buffer was used as negative control. The percentage of hemolysis (H) was calculated using the following equation: Hemolysis=[(Op−Ob)/(Ot−Ob)]×100%, where Op is the density for a given antimicrobial agent concentration, Ob is the density for the buffer, and Ot is the density for the Triton x-100 positive control.
Regarding chitosan-graft-polylysine [CS-g-K1], the “Selectivity: HC50/MIC(E. coli)” value is on record as above 625.
Same read-out and setting: under chitosan-graft-polylysine [CS-g-K3] stands above 2500; under chitosan-graft-polylysine [CS-g-K25], above 5000; under chitosan-graft-polylysine [CS-g-K9], above 5000.
For chitosan-graft-polylysine [CS-g-K3-HMW], the “Selectivity: HC50/MIC(E. coli)” value was above 313.

For the next series, the system named is human red blood cells.
Assay: not given
The following applies: comparator agents (#3A-#6E), previously reported; cited from earlier work.
Magainin-2: the “Selectivity: HC50/MIC(E. coli)” value is above 2.
